A mixed list of measured activities; the numbers were collected in NIAID ChemDB.

ICn: concentration for n% inhibition.

smiles,tested at,protein,test,measure,species,cell line,strain or isolate,value
O=C(O)[C@@H]1C[C@@H](O)CN1C(=O)c1ccc2c(c1)nc(-c1ccoc1)n2C1CCCCC1,,RNA-dependent RNA polymerase,target,IC50,Poliovirus,,,>25 µM
N=c1c2ncn([C@@H]3O[C@H](CO)[C@@H](O)[C@H]3O)c2ncn1OCc1cc(F)cc(F)c1,,,culture,EC50,Variola virus,VERO,Isolate Bangladesh,0.16 µg/mL
O=C(N[C@H](CO)c1ccccc1)c1ccc2c(c1)nc(-c1ccccn1)n2C1CCCCC1,,RNA-dependent RNA polymerase,target,IC50,Poliovirus,,,>25 µM
CCCCCCCCCCCCCCCCCC(=O)OC[C@@H](COP(=O)(O)OCCNCCO[C@@]1(C(=O)O)O[C@@H]([C@H](O)[C@H](O)CO)[C@H](NC(C)=O)[C@@H](O)[C@H]1F)OC(=O)CCCCCCCCCCCCCCCCC,,Sialidase,target,IC50,Influenza A virus,,H3N2 A/DUCK/HK/24/76,180 µM
Nc1ccn(C[C@@H](CO)OCP(=O)(O)O)c(=O)n1,,,culture,EC50,Variola virus,VERO,Isolate Garcia,7 µg/mL
Nc1ncnc2c1ncn2[C@@H]1C=C(CO)[C@@H](O)[C@H]1O,,,culture,EC50,Variola virus,MK2,BSH,0.1 µg/mL
Cn1cc([C@H](NC(=O)c2ccc3c(c2)nc(-c2ccoc2)n3C2CCCCC2)C(N)=O)c2cc(OC(C)(C)C(=O)O)ccc21,,RNA-dependent RNA polymerase,target,IC50,Poliovirus,,,>25 µM
CCCCCCCCCCCCC/C=C/[C@@H](O)[C@H](CO[C@@H]1O[C@H](CO)[C@H](O)[C@H](OS(=O)(=O)O)[C@H]1O)NC(=O)CCCCCCCCCCCCCCCCCCCCCCC,200 µM,Sialidase,target,inhibition,Influenza A virus,,H4N6 A/mallard/Alberta/25/85,89.3%
CC(=O)NC(C(=O)NC(C)CCc1ccccc1)[C@H]1CC(C(=O)O)C[C@@H]1N=C(N)N,,Neuraminidase,target,IC50,Influenza A virus (H6N2),,,0.23 µM
Nc1nc(=O)n([C@@H]2C=C(CO)[C@@H](O)[C@H]2O)cc1F,,,culture,EC50,Variola virus,VERO,BSH,1.17 µg/mL
CC(=O)NC(C(=O)N(C)C(C)C)[C@H]1CC(C(=O)O)C[C@@H]1N=C(N)N,,Neuraminidase,target,IC50,Influenza A virus (H6N2),,,3.21 µM
Nc1ccn(C[C@H]2COP(=O)(O)CO2)c(=O)n1,,,culture,EC50,Variola virus,VERO,Isolate Brazil Garcia,7.9 µg/mL
CCCCCCN(C)C(=O)C(NC(C)=O)[C@H]1CC(C(=O)O)C[C@@H]1N=C(N)N,,Neuraminidase,target,IC50,Influenza A virus (H6N2),,,12.4 µM
NC(=O)c1c[se]c([C@@H]2O[C@H](CO)[C@@H](O)[C@H]2O)n1,,,culture,EC50,Hantaan virus,VERO E6,HVL7990,1.3 µg/mL
CC(C(=O)O)c1ccc(NC(=O)c2ccc3c(c2)nc(-c2ccoc2)n3C2CCCCC2)cc1,,RNA-dependent RNA polymerase,target,IC50,Poliovirus,,,>25 µM
CCCN(CCC)C(=O)C(NC(C)=O)[C@H]1C[C@@H](C(=O)O)C[C@@H]1N=C(N)N,,Neuraminidase,target,IC50,Influenza A virus (H6N2),,,8.6 µM
COc1ccc(CNC(=O)c2ccc3c(c2)nc(-c2ccccn2)n3C2CCCCC2)c(OC)c1OC,,RNA-dependent RNA polymerase,target,IC50,Poliovirus,,,>25 µM
CCCCCCCCCCCCCCCCCC(=O)OC[C@@H](COP(=O)(O)OCCNCCO[C@@]1(C(=O)O)O[C@@H]([C@H](O)[C@H](O)CO)[C@H](NC(C)=O)[C@@H](O)[C@H]1F)OC(=O)CCCCCCCCCCCCCCCCC,,Sialidase,target,IC50,Influenza A virus,,H12N5 A/DUCK/862/5/80,125 µM
COC(=O)[C@H](Cc1c[nH]c2ccc(OCC(=O)O)cc12)NC(=O)c1ccc2c(c1)nc(-c1ccoc1)n2C1CCCCC1,,RNA-dependent RNA polymerase,target,IC50,Poliovirus,,,>25 µM
Nc1ccn(C[C@H]2COP(=O)(O)CO2)c(=O)n1,,,culture,EC50,Cowpox virus,VERO 76,,158 µM
CS(=O)(=O)Nc1ccc(C[C@H](NC(=O)c2ccc3c(c2)nc(-c2ccoc2)n3C2CCCCC2)C(=O)O)cc1,,RNA-dependent RNA polymerase,target,IC50,Poliovirus,,,>25 µM
C=CCNC(=O)C(NC(C)=O)[C@H]1CC(C(=O)O)C[C@@H]1N=C(N)N,,Neuraminidase,target,IC50,Influenza A virus (H6N2),,,0.72 µM

2 of the rows above, restated:

smiles | tested at | protein | test | measure | species | cell line | strain or isolate | value
Cn1cc([C@H](NC(=O)c2ccc3c(c2)nc(-c2ccoc2)n3C2CCCCC2)C(N)=O)c2cc(OC(C)(C)C(=O)O)ccc21 |  | RNA-dependent RNA polymerase | target | IC50 | Poliovirus |  |  | >25 µM
CC(=O)NC(C(=O)N(C)C(C)C)[C@H]1CC(C(=O)O)C[C@@H]1N=C(N)N |  | Neuraminidase | target | IC50 | Influenza A virus (H6N2) |  |  | 3.21 µM

Inhibition is in % at the dose shown (toxicity tests: loss of growth or viability). Conditions beyond the fields shown may differ between rows. ECn is the concentration giving n% inhibition of infection, replication or growth. Blank or dashed fields: not listed here.